Compound potency records, mixed from different reports. Data source: NIAID ChemDB in PubChem.

Shared fields: whole-cell or culture tests; species: HIV-1; method: MTT; measure: EC50

ECn: concentration that inhibits the pathogen or its effect by n%. Blank or dashed fields: not listed here. Lines come from different laboratories, so protocols vary.

{"smiles": "C#Cc1ccc(Nc2nccc(Oc3c(C)cc(-c4cn(-c5ccc(C(=O)O)cc5)nn4)cc3C)n2)cc1", "cells": "MT-4", "changes": "K103N", "strain": "IIIB", "value": "0.23 µM"}
{"smiles": "CC(C)CN(C[C@@H](O)[C@H](Cc1ccccc1)NC(=O)O[C@H]1CCOC1)S(=O)(=O)c1ccc(N)cc1", "cells": "MT-2", "strain": "LAI", "value": "0.033 µM"}
{"smiles": "Nc1nc2c(ncn2[C@H]2OC[C@@](F)(CCP(=O)(O)O)[C@H]2F)c(=O)[nH]1", "cells": "PBMC", "strain": "LAI", "value": "43 µM"}
{"smiles": "CCCC(=O)O[C@@H]1[C@@H](C)[C@@]2(O)[C@@H](CC(=O)C[C@]3(O)C(=O)C(C)=C[C@@H]23)[C@@H]2C(C)(C)[C@]12OC(=O)CCC", "cells": "MT-4", "strain": "IIIB", "value": ">20 µM"}
{"smiles": "CC(C)CN(C[C@@H](O)[C@H](Cc1ccccc1)NC(=O)O[C@H]1CCOC1)S(=O)(=O)c1ccc(N)cc1", "cells": "MT-4", "strain": "HXB2", "value": "0.082 µM"}
{"smiles": "Cc1cc(C)cc(S(=O)(=O)c2c(C(=O)NC(C)C(N)=O)[nH]c3ccc(Cl)cc23)c1", "cells": "MT-4", "changes": "Y181C", "value": "0.096 µM"}
{"smiles": "Cc1cc(/C=C/C#N)cc(C)c1Oc1ccnc(S(=O)(=O)CC(=O)Nc2ccc(F)cc2)n1", "cells": "MT-4", "changes": "K103N", "value": "0.006 µM"}
{"smiles": "Cc1cc(COc2cncc(C#N)c2)cc(C)c1Oc1ccnc(Nc2ccc(C#N)cc2)n1", "cells": "MT-4", "value": "0.2652 µM"}
{"smiles": "Cc1cc(C#N)cc(C)c1Oc1nc(Nc2ccc(C#N)cc2)nc(N)c1Br", "cells": "MT-4", "changes": "Y188L", "strain": "IIIB", "value": "0.02 µM"}
{"smiles": "CC(C)Nc1cccnc1N1CCN(C(=O)c2cc3cc(NS(C)(=O)=O)ccc3[nH]2)CC1", "cells": "MT-4", "strain": "IIIB", "value": "0.32 µM"}
{"smiles": "Nc1ncnc2c1ncn2CCOCP(=O)(O)O", "cells": "MT-4", "value": "0.28 µM"}
{"smiles": "Cc1ccnc2c1NC(=O)c1cccnc1N2C1CC1", "cells": "MT-4", "strain": "IIIB", "value": "0.19 µM"}
{"smiles": "Nc1nc2c(ncn2[C@H]2C[C@]3(CO2)CC(F)(F)P(=O)(O)O3)c(=O)[nH]1", "cells": "MT-4", "value": "94 µM"}
{"smiles": "Nc1nc2c(ncn2[C@H]2OC[C@@](F)(C=CP(=O)(O)O)[C@H]2F)c(=O)[nH]1", "cells": "PBMC", "strain": "LAI", "value": "68 µM"}
{"smiles": "CC1=C[C@H]2[C@@]3(O)[C@H](C)[C@@H](O)[C@]4(O)[C@H]([C@@H]3C=C(O)C[C@]2(O)C1=O)C4(C)C", "cells": "MT-4", "strain": "IIIB", "value": ">343 µM"}
{"smiles": "CC(C)Nc1cccnc1N1CCN(C(=O)c2cc3cc(NS(C)(=O)=O)ccc3[nH]2)CC1", "cells": "MT-4", "changes": "K103N", "strain": "IIIB", "value": "1.72 µM"}
{"smiles": "C#Cc1ccc(Nc2nccc(Oc3c(C)cc(-c4cn(CCCC(=O)OC)nn4)cc3C)n2)cc1", "cells": "MT-4", "strain": "RES056", "value": ">20.15 µM"}
{"smiles": "Cc1cn([C@H]2C[C@H](N=[N+]=[N-])[C@@H](CO)O2)c(=O)[nH]c1=O", "cells": "PBMC", "strain": "LAI", "value": "0.0672 µM"}
{"smiles": "Cc1cc([N+](=O)[O-])ccc1NC(=O)CSc1sc(Cl)nc1-c1ccc(Br)cc1Br", "cells": "MT-4", "changes": "E138K", "strain": "IIIB", "value": "7.89 µM"}
{"smiles": "CCOP(=O)(OCC)C(F)(F)C[C@@]1(O)CO[C@@H](n2cc(C)c(=O)[nH]c2=O)C1", "cells": "MT-4", "value": ">100 µM"}
{"smiles": "O=C(CSc1sc(Cl)nc1-c1ccc(Br)cc1Br)Nc1ccccc1Cl", "cells": "MT-4", "strain": "IIIB", "value": "6.59 µM"}
{"smiles": "Cc1cc(-c2ccc(C#N)cc2)cc(C)c1Oc1ccnc(S(=O)(=O)CC(=O)Nc2ccc(C#N)cc2)n1", "cells": "MT-4", "changes": "F227L V106A", "strain": "IIIB", "value": "0.642 µM"}
{"smiles": "COc1ccc(S(=O)(=O)N(CC(C)C)C[C@@H](O)[C@H](Cc2ccccc2)NC(=O)O[C@H]2CO[C@H]3O[C@@H]4OCC[C@@H]4[C@H]32)cc1", "cells": "MT-2", "strain": "LAI", "value": "0.0007 µM"}
{"smiles": "CC(=O)OCC1=C[C@H]2[C@@H]3C(C)(C)[C@]3(OC(=O)Cc3ccccc3)C[C@@H](C)[C@]2(O)[C@@H]2C=C(C)C(=O)[C@@]2(O)C1", "cells": "MT-4", "strain": "IIIB", "value": "0.3 µM"}
{"smiles": "O=c1ccn([C@H]2C[C@]3(CO2)CC(F)(F)P(=O)(O)O3)c(=O)[nH]1", "cells": "MT-4", "value": ">100 µM"}
{"smiles": "Cc1cn([C@H]2C=C[C@@H](COP(=O)(O)N[C@@H](CC(=O)O)C(=O)O)O2)c(=O)[nH]c1=O", "cells": "MT-4", "strain": "IIIB", "value": "0.36 µM"}
{"smiles": "COc1ccc(S(=O)(=O)N(CC(C)C)C[C@@H](O)[C@H](Cc2ccc(OC)c(Cl)c2)NC(=O)O[C@H]2CO[C@H]3OCC[C@H]32)cc1", "cells": "MT-2", "strain": "LAI", "value": "0.00035 µM"}
{"smiles": "O=C(CSc1sc(Cl)nc1-c1ccc(Br)cc1Br)Nc1cccnc1Cl", "cells": "MT-4", "changes": "E138K", "strain": "IIIB", "value": "8.28 µM"}
{"smiles": "COP(=O)(O)C[C@H](NP(=O)(O)OC[C@@H]1C=C[C@H](n2cc(C)c(=O)[nH]c2=O)O1)C(=O)O", "cells": "MT-4", "strain": "IIIB", "value": "0.47 µM"}
{"smiles": "CC(=O)O[C@@H]1[C@@H](C)[C@@]2(O)[C@@H](C=C(O)C[C@]3(O)C(=O)C(C)=C[C@@H]23)[C@@H]2C(C)(C)[C@]12O", "cells": "MT-4", "strain": "IIIB", "value": ">307 µM"}
{"smiles": "O=C(/C=C/c1ccc(O)cc1)O[C@@H]1Cc2c(O)cc(O)cc2O[C@@H]1c1ccc(O)c(O)c1", "cells": "C8166", "strain": "IIIB", "value": "18.07 µg/mL"}
{"smiles": "C#Cc1ccc(Nc2nccc(Oc3c(C)cc(-c4cn(CCC(=O)OC)nn4)cc3C)n2)cc1", "cells": "MT-4", "changes": "L100I", "strain": "IIIB", "value": "5.06 µM"}
{"smiles": "O=C(c1ccccc1)c1c(O)cc(O)cc1O[C@@H]1O[C@H](CO)[C@@H](O)[C@H](O)[C@H]1O", "cells": "C8166", "strain": "IIIB", "value": "18.06 µg/mL"}
{"smiles": "CCOP(=O)(OCC)C(F)(F)C[C@@]1(O)CO[C@@H](n2cnc3c(N)ncnc32)C1", "cells": "MT-4", "value": "67.5 µM"}
{"smiles": "C=CCOC(=O)NC1CCCN(CC(=O)NN[C@@H](CC(N)=O)C(=O)N[C@@H](Cc2ccccc2)C(=O)O)C1=O", "value": ">125 µg/mL"}
{"smiles": "Nc1nc(-c2ccc(Br)cc2Br)c(SCC(=O)Nc2ccccc2N)s1", "cells": "MT-4", "strain": "IIIB", "value": ">33.04 µM"}
{"smiles": "CC[C@H](C)[C@H](NC(=O)[C@H](CCC(N)=O)NC(=O)[C@@H]1CCCN1N)C(=O)N[C@H](C(=O)N[C@@H](CC(C)C)C(=O)N[C@@H](Cc1c[nH]c2ccccc12)C(=O)O)[C@@H](C)O", "value": ">125 µg/mL"}
{"smiles": "CCOP(=O)(OCC)C(F)(F)C[C@@]1(O)CO[C@@H](n2cnc3c(Cl)nc(N)nc32)C1", "cells": "MT-4", "value": "90 µM"}
{"smiles": "CSc1c(C)c(SC)n2ccncc12", "cells": "PBMC", "strain": "IIIB", "value": "18 µM"}
{"smiles": "C#Cc1ccc(Nc2nccc(Oc3c(C)cc(-c4cn(CC(=O)OC)nn4)cc3C)n2)cc1", "cells": "MT-4", "changes": "E138K", "strain": "IIIB", "value": ">10.35 µM"}
{"smiles": "Cc1cn([C@H]2C=C[C@@H](CO)O2)c(=O)[nH]c1=O", "cells": "MT-4", "strain": "IIIB", "value": "0.3 µM"}
{"smiles": "Nc1ccccc1NC(=O)CSc1sc(Cl)nc1-c1ccc(Br)cc1Br", "cells": "MT-4", "changes": "L100I", "strain": "IIIB", "value": "2.23 µM"}

A second listing of 2 rows from above:

smiles,cells,changes,strain,value
CC(C)CN(C[C@@H](O)[C@H](Cc1ccccc1)NC(=O)O[C@H]1CCOC1)S(=O)(=O)c1ccc(N)cc1,MT-2,-,LAI,0.033 µM
Nc1nc2c(ncn2[C@H]2C[C@]3(CO2)CC(F)(F)P(=O)(O)O3)c(=O)[nH]1,MT-4,-,-,94 µM